Potato spindle tuber viroid, loop 15: variant abundance in plants

The measurements come from Wu et al. 2024 (doi:10.1371/journal.ppat.1012142).

The pool varies loop 15 of the PSTVd intermediate strain in the pattern GGAAACCGNNNNNNC; wild type is GGAAACCGCUACUAC (upper and lower strand joined, each 5' to 3', the first 7 letters being the upper strand, closing pairs included).

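Three N. benthamiana plants were inoculated with the whole mutant pool. Samples came from the inoculated region at 5 days, the leaf margin at 10 and upper systemic leaves at 12.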

Values are reads per thousand in the sample; higher means more abundant, 0 means not found. Each value is the mean of three plants. "Pool" is the share in the plasmid pool used as inoculum, on the same scale. The inoculated region was read from the minus strand, the other sites from the plus strand. IR is the inoculated region, LM the leaf margin, Sys the systemic leaves. Wild type was 33.9 per thousand in the pool and the most common sequence in every sample (inoculated region 202, 200, 159; leaf margin 724, 746, 710; systemic leaves 856, 883, 880).

* GGAAACCGUCCAUGC (pool 0.224) = IR 0.181; LM 0.0490; Sys 0
* GGAAACCGGGAGCGC (pool 0.224) = IR 0.0831; LM 0.0187; Sys 0
* GGAAACCGGUCGCAC (pool 0.240) = IR 0.0976; LM 0; Sys 0
* GGAAACCGAUCAUGC (pool 0.144) = IR 0.101; LM 0.0121; Sys 0.00537
* GGAAACCGUCGGCGC (pool 0.192) = IR 0.108; LM 0.00539; Sys 0.00537
* GGAAACCGAUGUCUC (pool 0.272) = IR 0.0973; LM 0.0202; Sys 0
* GGAAACCGGUAUUUC (pool 0.176) = IR 0.257; LM 0.126; Sys 0.0414
* GGAAACCGCGGGGAC (pool 0.256) = IR 0.101; LM 0; Sys 0
* GGAAACCGGUUUUUC (pool 0.208) = IR 0.0802; LM 0.0134; Sys 0.00537
* GGAAACCGGGGGCAC (pool 0.128) = IR 0.0922; LM 0.0128; Sys 0
* GGAAACCGGCAUAAC (pool 0.256) = IR 0.0729; LM 0.00539; Sys 0
* GGAAACCGAAGAUAC (pool 0.336) = IR 0.458; LM 0.179; Sys 0.448
* GGAAACCGACCCCGC (pool 0.272) = IR 0.132; LM 0.00668; Sys 0.00537
* GGAAACCGUUUCGGC (pool 0.272) = IR 0.0742; LM 0.00668; Sys 0
* GGAAACCGAAAGGAC (pool 0.320) = IR 0.327; LM 0.115; Sys 0.0306
* GGAAACCGACUAUCC (pool 0.192) = IR 0.0750; LM 0.00668; Sys 0
* GGAAACCGCGUGUGC (pool 0.112) = IR 0.377; LM 0.143; Sys 0.0429
* GGAAACCGACUCACC (pool 0.208) = IR 0.107; LM 0; Sys 0
* GGAAACCGGUCCCUC (pool 0.320) = IR 0.141; LM 0.0187; Sys 0.00537
* GGAAACCGUCCAAUC (pool 0.176) = IR 0.236; LM 0.0187; Sys 0.0158
* GGAAACCGCGCGUCC (pool 0.256) = IR 0.310; LM 0.0900; Sys 0.0161
* GGAAACCGAUCUCAC (pool 0.288) = IR 0.100; LM 0.0175; Sys 0
* GGAAACCGUGCAUUC (pool 0.192) = IR 0.281; LM 0.111; Sys 0.0161
* GGAAACCGCGGCUCC (pool 0.0640) = IR 0.331; LM 0.00539; Sys 0.0104
* GGAAACCGCCUAUAC (pool 0.192) = IR 0.302; LM 0.114; Sys 0.0963
* GGAAACCGGAUUACC (pool 0.144) = IR 0.0677; LM 0; Sys 0
* GGAAACCGUUUCUGC (pool 0.256) = IR 0.0803; LM 0.0121; Sys 0
* GGAAACCGGACCGGC (pool 0.160) = IR 0.131; LM 0.0128; Sys 0.00760
* GGAAACCGAUGUUAC (pool 0.256) = IR 0.282; LM 0.101; Sys 0.0818
* GGAAACCGAAGACGC (pool 0.304) = IR 0.0852; LM 0.00668; Sys 0
* GGAAACCGAUACUGC (pool 0.272) = IR 0.345; LM 0.146; Sys 0.0534
* GGAAACCGACUAGCC (pool 0.192) = IR 0.0991; LM 0; Sys 0.00537
* GGAAACCGAUCCGUC (pool 0.272) = IR 0.0569; LM 0.00539; Sys 0
* GGAAACCGCAAAAAC (pool 0.208) = IR 0.225; LM 0.0223; Sys 0
* GGAAACCGACCACUC (pool 0.224) = IR 0.119; LM 0.0141; Sys 0
* GGAAACCGUUUGUAC (pool 0.272) = IR 0.279; LM 0.110; Sys 0.0638
* GGAAACCGAAAAGCC (pool 0.304) = IR 0.0987; LM 0.0215; Sys 0
* GGAAACCGCUACCAC (pool 0.480) = IR 0.520; LM 0.527; Sys 0.282
* GGAAACCGCGAGUGC (pool 0.112) = IR 0.343; LM 0.137; Sys 0.0455
* GGAAACCGGCGAACC (pool 0.256) = IR 0.106; LM 0.0128; Sys 0

The first 4 entries again:

- GGAAACCGUCCAUGC (pool 0.224) -> IR 0.181; LM 0.0490; Sys 0
- GGAAACCGGGAGCGC (pool 0.224) -> IR 0.0831; LM 0.0187; Sys 0
- GGAAACCGGUCGCAC (pool 0.240) -> IR 0.0976; LM 0; Sys 0
- GGAAACCGAUCAUGC (pool 0.144) -> IR 0.101; LM 0.0121; Sys 0.00537

The authors trace changes outside the varied positions to PCR and sequencing errors or to mutation in the plant; presence does not show that a variant is infectious alone. With 43,870-66,106 reads a sample, very low values are single reads.